Anti-infective test results gathered from many reports (values: NIAID ChemDB through PubChem).

Shared fields: tests in culture; species: HIV-1; cells: MT-2; read-out: EC50

Blank or dashed fields: not listed here.

smiles | strain or isolate | mutations | read by | conditions | value
NC(=O)C(c1ccccc1)(c1ccccc1)C1CCCN(CCC2CCCCC2)C1 | NL4-3 |  | cytopathic effect / XTT |  | 4.7 µM
Cc1cn([C@H]2C=C[C@@H](CO)O2)c(=O)[nH]c1=O | LAI | RT-K65R | p24 |  | 18.4 µM
CC(C)=CCN1Cc2cccc3[nH]c(=S)n(c23)C[C@@H]1C | IIIB |  | cytopathic effect / MTT |  | 0.6 µM
CCCCCC[C@@H]1[C@H](O)[C@@H](O)[C@@H](Cc2ccccc2)N(Cc2cccc(C(=O)Nc3nc4ccccc4[nH]3)c2)C(=O)N1Cc1cccc(C(=O)Nc2nc3ccccc3[nH]2)c1 | RF | PR-I84V |  | 3 d | <0.024 µM
Cc1cn([C@H]2C[C@H](N=[N+]=[N-])[C@@H](CO)O2)c(=O)[nH]c1=O | NL4-3 |  |  |  | 0.02 µM
Cc1ccc(S(=O)(=O)N(CC(C)C)C[C@@H](O)[C@H](Cc2ccccc2)NC(=O)O[C@H]2CO[C@H]3OCC[C@H]32)cc1 | IIIB | M200I | p24 / ELISA |  | 0.008 µM
CC(C)OC(=O)OCOP(=O)(CO[C@H](C)Cn1cnc2c(N)ncnc21)OCOC(=O)OC(C)C | Saquinavir-resistant (G48V L90M) | RT-G48V L90M | p24 |  | 0.01 µM
Nc1cccc(CN2C(=O)N(Cc3cccc(C(=O)Nc4cnccn4)c3)[C@H](Cc3ccccc3)[C@H](O)[C@@H](O)[C@H]2Cc2ccccc2)c1 | RF |  |  |  | <0.0202 µM
CC1=C(CCC(=O)O)c2cc3nc(cc4[nH]c(cc5[nH]c(cc1n2)c(C)c5CCOC(=O)B([B]C1[B][B][B][B]1)C1[B][B][B][B]1)c(C)c4CCOC(=O)B([B]C1[B][B][B][B]1)C1[B][B][B][B]1)C(C)=C3CCC(=O)O | IIIB |  | p24 |  | 0.33 ± 0.15 µM
Nc1cccc(CN2C(=O)N(Cc3cccc(C(=O)Nc4ncc[nH]4)c3)[C@H](Cc3ccccc3)[C@H](O)[C@@H](O)[C@H]2Cc2ccccc2)c1 | RF |  |  |  | <0.0262 µM
O=C1N(Cc2cccc(-c3ccn[nH]3)c2)[C@H](Cc2ccc(O)cc2)[C@H](O)[C@@H](O)[C@@H](Cc2ccc(O)cc2)N1Cc1cccc(-c2ccn[nH]2)c1 | RF |  | hybridisation |  | <1.345 µM
CC(=O)O[C@H]1C[C@H](n2ccc(=O)[nH]c2=O)O[C@@H]1COP(=O)(OCC(Cl)(Cl)Cl)OCC(Cl)(Cl)Cl | RF |  | p24 / ELISA |  | >200 µM
COC(=O)[C@H](C)NP(=O)(OCC1C/C1=C/n1cnc2c(N)ncnc21)Oc1ccccc1 | LAI |  | cytopathic effect / MTT |  | 0.0026 µM
CC(=O)O[C@H]1C[C@H](n2cc(C)c(=O)[nH]c2=O)O[C@@H]1COP(=O)(OCC(Cl)(Cl)Cl)OCC(Cl)(Cl)Cl | RF |  | p24 / ELISA |  | 30 µM
O=C(O)P(=O)(O)O | LAI |  | cytopathic effect / MTT |  | 70.6 µM
CO[C@H]1O[C@@H](n2ccc(=O)[nH]c2=O)C[C@@H]1N=[N+]=[N-] | AZT-resistant (RT D67N K70R T215F K219Q) | RT-D67N K70N T215F K219Q | p24 |  | >200 µM
CC(C)C[C@@H]1[C@H](O)[C@@H](O)[C@@H](CC(C)C)N(Cc2cccc(C(=O)Nc3nc4ccccc4[nH]3)c2)C(=O)N1Cc1cccc(C(=O)Nc2nc3ccccc3[nH]2)c1 | RF |  |  | 3 d | <0.059 µM
CCCC(=O)c1cccc(CN2C(=O)N(Cc3cccc(C(=O)CCC)c3)[C@H](Cc3ccccc3)[C@H](O)[C@@H](O)[C@H]2Cc2ccccc2)c1 | RF |  |  |  | <1.439 µM
COC(=O)N[C@H](C(=O)N[C@@H](Cc1ccccc1)[C@@H](O)CN(Cc1ccc(-c2ccccn2)cc1)NC(=O)[C@@H](NC(=O)OC)C(C)(C)C)C(C)(C)C | IIIB | ATV-P36 atazanavir-resistant mutant | ATP |  | >0.67 µM
CCOCn1c(Sc2ccccc2)c(C)c(=O)[nH]c1=O | IIIB |  | cytopathic effect / MTT |  | 1.3 µM
Nc1n[nH]c2ccc(CN3C(=O)N[C@H](CCc4ccccc4)[C@@H](O)[C@H]3Cc3ccccc3)cc12 | RF |  | cytopathic effect / MTT |  | <0.549 µM
O=Cc1cccc(CN2C(=O)N(Cc3cccc(C=O)c3)[C@H](Cc3ccccc3)[C@H](O)[C@@H](O)[C@H]2Cc2ccccc2)c1 | RF |  |  |  | <0.036 µM
O=C(Nc1nc2ccccc2[nH]1)c1cccc(CN2C(=O)N(Cc3cccc(C(=O)Nc4nc5ccccc5[nH]4)c3)[C@H](C3CCCCC3)[C@H](O)[C@@H](O)[C@H]2C2CCCCC2)c1 | RF |  |  | 3 d | <0.014 µM
Cc1c(O)cccc1C(=O)N[C@@H](CSc1ccccc1)[C@H](O)CN1C[C@H]2CCCC[C@H]2C[C@H]1C(=O)NC(C)(C)C | NL4-3 | INTG-G140S |  |  | 0.03 µM
COc1ccc(C[C@@H]2[C@H](O)[C@@H](O)[C@@H](Cc3ccc(OC)cc3)N(Cc3ccccc3)C(=O)N2Cc2ccccc2)cc1 | RF |  | hybridisation |  | <0.6 µM
NC(=O)C(c1ccccc1)(c1ccccc1)[C@H]1CCCN(CCc2ccc3c(c2)CCO3)C1 | NL4-3 |  | cytopathic effect / XTT |  | 0.78 µM
O=C1N(Cc2cccc(-c3ncc[nH]3)c2)[C@H](Cc2ccccc2)[C@H](O)[C@@H](O)[C@@H](Cc2ccccc2)N1Cc1cccc(-c2ncc[nH]2)c1 | RF |  |  |  | <0.234 µM
Cc1cn([C@H]2C[C@H](N=[N+]=[N-])[C@@H](CO)O2)c(=O)[nH]c1=O | RF |  | p24 / ELISA |  | 0.04 µM
NC(=O)c1cccc(CN2C(=O)N(Cc3cccc(C(N)=O)c3)[C@H](Cc3ccc(F)cc3)[C@H](O)[C@H]2CCc2ccc(F)cc2)c1 | RF |  | cytopathic effect / MTT |  | <0.035 µM
Cc1ccc(NC(=O)c2cccc(CN3C(=O)N(Cc4cccc(N)c4)[C@H](Cc4ccccc4)[C@H](O)[C@@H](O)[C@H]3Cc3ccccc3)c2)nc1 | RF |  |  |  | <0.0165 µM
C[C@]12CC[C@H](O)CC1=CC[C@@H]1[C@@H]2CC[C@]2(C)C(=O)CC[C@@H]12 | 4246 Clinical isolate |  | RT activity |  | 50 µM
CC(C)CN(C[C@@H](O)[C@H](Cc1ccccc1)NC(=O)[C@H](CC(N)=O)NC(=O)c1ccc2ccccc2n1)C(=O)NC(C)(C)C | RF |  |  |  | 0.053 µM
Nc1ccc(C[C@@H]2[C@H](O)[C@@H](O)[C@@H](Cc3ccc(N)cc3)N(Cc3cccc(C(=O)Nc4nc5ccccc5[nH]4)c3)C(=O)N2Cc2cccc(C(=O)Nc3nc4ccccc4[nH]3)c2)cc1 | RF | PR-I84V V82F |  | 3 d | <0.076 µM
Nc1cccc(CN2C(=O)N(Cc3cccc(N)c3)[C@H](Cc3ccccc3)[C@H](O)[C@@H](O)[C@H]2Cc2ccccc2)c1 | RF |  |  |  | <0.125 µM
Cc1cn([C@H]2C[C@H](N=[N+]=[N-])[C@@H](CO)O2)c(=O)[nH]c1=O | LAI | RT-D67N K70R T215Y K219Q K65R | p24 |  | 0.004 µM
Cc1cn([C@H]2C[C@H](N=[N+]=[N-])[C@@H](CO)O2)c(=O)[nH]c1=O | IIIB |  | MTT / p24 |  | 0.017 µg/mL
Cc1cn([C@H]2C=C[C@@H](CO)O2)c(=O)[nH]c1=O | LAI |  | cytopathic effect / MTT |  | 13.4 µM
Nc1cc(CN2C(=O)N(Cc3ccc(F)c(N)c3)[C@H](Cc3ccccc3)[C@H](O)[C@H]2CCc2ccccc2)ccc1F | RF |  | cytopathic effect / MTT |  | <0.036 µM
CCN(c1nc(F)ccc1NC(C)(C)C)C1CCN(C(=O)c2cc3cc(NC(=O)N4CCN(C)CC4)ccc3[nH]2)CC1 | IIIB | 8374-P47 GS-8374-resistant | ATP |  | 0.0195 µM
CO[P@](=O)(c1cc(C)cc(/C=C/C#N)c1)c1c(C(N)=O)[nH]c2ccc(Cl)cc12 | Clinical isolate | Y181C |  |  | 0.0015 µM
COC(=O)[C@H](C)NP(=O)(OCC1C/C1=C\n1cnc2c(N)ncnc21)Oc1ccccc1 | LAI |  | cytopathic effect / MTT |  | 0.66 µM
O=C1N(Cc2ccccc2)[C@H](Cc2ccccc2)[C@H](O)[C@@H](O)[C@@H](Cc2ccccc2)N1Cc1ccccc1 | RF |  | hybridisation |  | <0.79 µM
O=C(Nc1ccccn1)c1cccc(CN2C(=O)N(Cc3cccc([N+](=O)[O-])c3)[C@H](Cc3ccccc3)[C@H](O)[C@@H](O)[C@H]2Cc2ccccc2)c1 | RF |  |  |  | <0.0975 µM
O=c1[nH]cnc2c1ncn2[C@H]1CC[C@@H](CO)O1 | PDBC |  | RT activity |  | 5 µM
O=C1N(Cc2cccc(CO)c2)[C@H](CCc2ccccc2)[C@@H](O)[C@@H](Cc2ccccc2)N1Cc1cccc(CO)c1 | RF |  | cytopathic effect / MTT |  | <0.109 µM
CCOCn1c([Se]c2ccccc2)c(CC)c(=O)[nH]c1=O | LAI |  | cytopathic effect / MTT |  | <0.04 µM
COc1cc(CN2C(=O)N(Cc3cccc(C(=O)Nc4ccccn4)c3)[C@H](Cc3ccccc3)[C@H](O)[C@@H](O)[C@H]2Cc2ccccc2)cc(OC)c1 | RF |  |  |  | <0.1293 µM
C/C(=N\O)c1cccc(CN2C(=O)N(Cc3cccc(/C(C)=N/O)c3)[C@H](Cc3ccccc3)[C@H](O)[C@@H](O)[C@H]2Cc2ccccc2)c1 | RF |  |  |  | <0.002 µM
Cc1c([Se]c2ccccc2)n(COCCO)c(=O)[nH]c1=O | IIIB |  | cytopathic effect / MTT |  | 21.8 µM
CC1=C(CCC(=O)O)c2cc3nc(cc4[nH]c(cc5[nH]c(cc1n2)c(C)c5C(COC(=O)B([B]C1[B][B][B][B]1)C1[B][B][B][B]1)OC(=O)B([B]C1[B][B][B][B]1)C1[B][B][B][B]1)c(C)c4C(COC(=O)B([B]C1[B][B][B][B]1)C1[B][B][B][B]1)OC(=O)B([B]C1[B][B][B][B]1)C1[B][B][B][B]1)C(C)=C3CCC(=O)O | IIIB |  | cytopathic effect |  | 0.22 ± 0.09 µM
CC(C)C[C@@H]1[C@H](O)[C@@H](O)[C@@H](Cc2ccccc2)N(Cc2cccc(C(=O)Nc3nc4ccccc4[nH]3)c2)C(=O)N1Cc1cccc(C(=O)Nc2nc3ccccc3[nH]2)c1 | RF |  |  | 3 d | <0.01 µM
Nc1nc(=O)n([C@@H]2CS[C@H](CO)O2)cc1F | Clinical isolate | A62V (mixture)/L74V/V75I (mixture)/K103N/Y115F/F116Y/Q151M | recombinant virus assay |  | 3.612 µM
NC(=O)C(c1ccccc1)(c1ccccc1)[C@H]1CCCN(CCOCc2ccccc2)C1 | NL4-3 |  | cytopathic effect / XTT |  | 0.45 µM
Nc1ccn([C@H]2CC[C@@H](CO)O2)c(=O)n1 | G910-6 |  | cytopathic effect / MTT |  | ~0.32 µg/mL
Nc1nc2c(ncn2[C@H]2CO[C@@H](CO)O2)c(=O)[nH]1 | LAI | RT-L74V | p24 |  | 1.17 µM
O=C1N(Cc2ccccc2)[C@H](Cc2ccc(OCc3ccncc3)cc2)[C@H](O)[C@@H](O)[C@@H](Cc2ccc(OCc3ccncc3)cc2)N1Cc1ccccc1 | RF |  | hybridisation |  | <0.1 µM
O=c1[nH]cnc2c1ncn2[C@H]1CC[C@@H](CO)O1 | LAI |  | p24 |  | 3.7 µM
CNCCOc1ccc(C[C@@H]2[C@H](O)[C@@H](O)[C@@H](Cc3ccc(OCCNC)cc3)N(Cc3ccccc3)C(=O)N2Cc2ccccc2)cc1 | RF |  | hybridisation |  | <0.8 µM
CO[C@H]1O[C@@H](n2ccc(=O)[nH]c2=O)C[C@@H]1N=[N+]=[N-] | HX |  | RT activity |  | 27.6 µM
COC(=O)[C@H](C)NP(=O)(OC[C@H]1C/C1=C/n1cnc2c(N)nc(N)nc21)Oc1ccccc1 | LAI |  | cytopathic effect / MTT |  | 0.034 µM
Cc1cn([C@H]2C=C[C@@H](CO)O2)c(=O)[nH]c1=O | Clinical isolate | A62V/T69ins/V75I/A98G/K103S/G190A | recombinant virus assay |  | 6.24 µM
Cc1ccccc1CCN1CCCC(C(C(N)=O)(c2ccccc2)c2ccccc2)C1 | NL4-3 |  | cytopathic effect / XTT |  | 1.4 µM
COc1cccc(CN2C(=O)N(Cc3cccc(C(=O)Nc4ccc(C)cn4)c3)[C@H](Cc3ccccc3)[C@H](O)[C@@H](O)[C@H]2Cc2ccccc2)c1 | RF |  |  |  | <0.0416 µM

A second listing of 5 rows from above:

{"smiles": "Cc1cn([C@H]2C[C@H](N=[N+]=[N-])[C@@H](CO)O2)c(=O)[nH]c1=O", "strain or isolate": "IIIB", "read by": "MTT / p24", "value": "0.017 µg/mL"}
{"smiles": "CCCC(=O)c1cccc(CN2C(=O)N(Cc3cccc(C(=O)CCC)c3)[C@H](Cc3ccccc3)[C@H](O)[C@@H](O)[C@H]2Cc2ccccc2)c1", "strain or isolate": "RF", "value": "<1.439 µM"}
{"smiles": "CC(C)=CCN1Cc2cccc3[nH]c(=S)n(c23)C[C@@H]1C", "strain or isolate": "IIIB", "read by": "cytopathic effect / MTT", "value": "0.6 µM"}
{"smiles": "CO[C@H]1O[C@@H](n2ccc(=O)[nH]c2=O)C[C@@H]1N=[N+]=[N-]", "strain or isolate": "AZT-resistant (RT D67N K70R T215F K219Q)", "mutations": "RT-D67N K70N T215F K219Q", "read by": "p24", "value": ">200 µM"}
{"smiles": "CC1=C(CCC(=O)O)c2cc3nc(cc4[nH]c(cc5[nH]c(cc1n2)c(C)c5CCOC(=O)B([B]C1[B][B][B][B]1)C1[B][B][B][B]1)c(C)c4CCOC(=O)B([B]C1[B][B][B][B]1)C1[B][B][B][B]1)C(C)=C3CCC(=O)O", "strain or isolate": "IIIB", "read by": "p24", "value": "0.33 ± 0.15 µM"}

ECn is the concentration giving n% inhibition of infection, replication or growth. Conditions beyond the fields shown may differ between rows.